The results in this text go back to paper PMC9374677, “Staphylococcal superantigen-like protein 10 induces necroptosis through TNFR1 activation of RIPK3-dependent signal pathways” (2022).

This experiment has as its target MBP-tagged extracellular domain of human TNFR1 (amino acids 22-211) (human) (UniProt P19438).

The pKd is the Kd on a negative log10 scale, so that one unit is a factor of ten. Read a high pKd as a small Kd.

pKd: −log10 of the molar value.

With “Staphylococcal superantigen-like protein 10 (SSL10), residues 31-227, C-terminal 6xHis (from UniProt A0A0H3K6Z9 31-227)”, the pKd was 5.41.
